In patent publication US6638947B2, “Carbocyclic and heterocyclic substituted semicarbazones and thiosemicarbazones and the use thereof” (Euro-Celtique S.A., priority 1997, dated 2003) one finds IC50 data, which are given here for 1 molecule.

This assay has as its system site 1 of the Na^+ channel. Description: Binding assay, site 1 of the Na^+ channel, [^3H] saxitoxin, forebrain membranes. On the set-up: species or system rat.

In the case of `NC1=N[C@H](O)[C@H]2[C@H]3O[C@]4(O)O[C@@H]([C@@H](O)[C@@]2(N1)[C@@H]4O)[C@]3(O)CO` [Tetrodotoxin], the IC50 (usually the concentration at which inhibition is half-maximal) worked out at 12 nM.
